Consider four molecules from ChEMBL document CHEMBL4052757, “Bistacrines as potential antitrypanosomal agents” (Bioorg Med Chem, 2017).

Amino acid sequences for entries named in this document (tags omitted). A change or cut given only in a name is not applied to a line headed by its entry.
UniProt P28593: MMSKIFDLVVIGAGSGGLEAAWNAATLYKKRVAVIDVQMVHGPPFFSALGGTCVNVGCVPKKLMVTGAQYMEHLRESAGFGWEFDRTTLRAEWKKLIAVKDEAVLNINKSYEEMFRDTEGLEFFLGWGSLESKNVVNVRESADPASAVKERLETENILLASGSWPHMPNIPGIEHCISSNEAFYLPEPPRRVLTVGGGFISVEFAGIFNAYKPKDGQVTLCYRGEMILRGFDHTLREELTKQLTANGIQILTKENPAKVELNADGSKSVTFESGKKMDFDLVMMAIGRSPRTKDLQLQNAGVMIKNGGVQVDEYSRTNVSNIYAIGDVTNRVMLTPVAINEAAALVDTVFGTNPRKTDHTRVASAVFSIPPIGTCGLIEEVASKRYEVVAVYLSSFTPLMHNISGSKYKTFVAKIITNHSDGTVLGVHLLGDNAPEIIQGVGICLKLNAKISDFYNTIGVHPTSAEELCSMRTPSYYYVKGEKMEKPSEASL

Assay [1] has as its target Rhodesain (Trypanosoma brucei rhodesiense) (UniProt Q95PM0). Description: Inhibition of Trypanosoma brucei rhodesiense rhodesain at 20 uM using Cbz-Phe-Arg-AMC as substrate measured for 5 mins by spectrofluorometric analysis relative to control. A digest of the protocol: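 Rhodesain in 50 mM sodium acetate pH 5.5 with 5 mM DTT, 5 mM EDTA, 200 mM NaCl; inhibitor 20 µM, substrate Cbz-Phe-Arg-AMC; AMC fluorescence (ex 380/em 460 nm) followed 5 min; activity from slopes of fluorescence vs time versus DMSO control; run in duplicate.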

The target is the same in assay [2]. Description: Inhibition of Trypanosoma brucei rhodesiense rhodesain using Cbz-Phe-Arg-AMC as substrate by spectrofluorometric analysis.
Assay [3] deals with Trypanothione reductase (Leishmania infantum) (UniProt A4HSF7). Briefly: Inhibition of Leishmania infantum trypanothione reductase.
Another assay has as its system Leishmania infantum. Description: Antileishmanial activity against Leishmania infantum. It counts as functional.
For assay [4], the target named is Trypanothione reductase (Trypanosoma cruzi) (UniProt P28593). Briefly: Inhibition of Trypanosoma cruzi trypanothione reductase at 3 uM using 40 uM trypanothione disulfide as substrate by spectrophotometric method relative to control.
Assay [5] shares this target. Description: Inhibition of Trypanosoma cruzi trypanothione reductase at 1 uM using 40 uM trypanothione disulfide as substrate by spectrophotometric method relative to control.
The target is the same in assay [6]. Briefly: Inhibition of Trypanosoma cruzi trypanothione reductase at 3 uM using 100 uM trypanothione disulfide as substrate by spectrophotometric method relative to control.
The target is the same in assay [7]. Description: Inhibition of Trypanosoma cruzi trypanothione reductase at 1 uM using 100 uM trypanothione disulfide as substrate by spectrophotometric method relative to control.

The source made the active and inactive calls. The calls are words filed in the database; no cut-off is given here.

Regarding `c1ccc2c(NCCCCCCCCCNc3c4c(nc5ccccc35)CCCC4)c3c(nc2c1)CCCC3`, the inhibition (commonly the percentage by which the read-out fell short of the control) is 82% in assay [1]; “Dose-dependent effect” in assay [2]; 70.6 to 71.4% in assay [4]; 49.6 to 52.9% in assay [5]; 60.2% in assay [6]; 36.4 to 47% in assay [7]. Also, the inhibition result in assay [3] was “Active”. Further, in the assay with Leishmania infantum, the result was Active.
As to `c1ccc2c(NCCNc3c4c(nc5ccccc35)CCCC4)c3c(nc2c1)CCCC3`, the inhibition result in assay [3] was “Active”. Further, the result in the assay with Leishmania infantum was Active.
Regarding `c1ccc2c(NCCCCNc3c4c(nc5ccccc35)CCCC4)c3c(nc2c1)CCCC3`, in assay [3], the inhibition entry was “Active”. Moreover, in the assay on Leishmania infantum, the outcome was Active.
For `c1ccc2c(NCCCNc3c4c(nc5ccccc35)CCCC4)c3c(nc2c1)CCCC3`, the inhibition result in assay [3] was “Active”. The result in the assay with Leishmania infantum was Active.
